# From US20060002932A1, “Methods and compositions for enhancement of immunity by in vivo depletion of immunosuppressive cell activity” (priority 2004, published 2006)
# System: CD4^+CD25^int memory T-cell pool
# Settings: pre, after DAB389IL-2, after 3 vaccination cycles
substance,measurement,value
denileukin diftitox [DAB389IL-2],frequencies of recall antigen-specific Interferon-γ secreting T cells,did not reveal any changes
